Results taken from patent publication US8492428B2 (priority 2005, dated 2013).

By UniProt entry, the sequences of proteins in these tests, tags left out. Where a name states a change or a piece, a line headed by the entry shows the natural chain unless it says otherwise.
UniProt P0DPI0: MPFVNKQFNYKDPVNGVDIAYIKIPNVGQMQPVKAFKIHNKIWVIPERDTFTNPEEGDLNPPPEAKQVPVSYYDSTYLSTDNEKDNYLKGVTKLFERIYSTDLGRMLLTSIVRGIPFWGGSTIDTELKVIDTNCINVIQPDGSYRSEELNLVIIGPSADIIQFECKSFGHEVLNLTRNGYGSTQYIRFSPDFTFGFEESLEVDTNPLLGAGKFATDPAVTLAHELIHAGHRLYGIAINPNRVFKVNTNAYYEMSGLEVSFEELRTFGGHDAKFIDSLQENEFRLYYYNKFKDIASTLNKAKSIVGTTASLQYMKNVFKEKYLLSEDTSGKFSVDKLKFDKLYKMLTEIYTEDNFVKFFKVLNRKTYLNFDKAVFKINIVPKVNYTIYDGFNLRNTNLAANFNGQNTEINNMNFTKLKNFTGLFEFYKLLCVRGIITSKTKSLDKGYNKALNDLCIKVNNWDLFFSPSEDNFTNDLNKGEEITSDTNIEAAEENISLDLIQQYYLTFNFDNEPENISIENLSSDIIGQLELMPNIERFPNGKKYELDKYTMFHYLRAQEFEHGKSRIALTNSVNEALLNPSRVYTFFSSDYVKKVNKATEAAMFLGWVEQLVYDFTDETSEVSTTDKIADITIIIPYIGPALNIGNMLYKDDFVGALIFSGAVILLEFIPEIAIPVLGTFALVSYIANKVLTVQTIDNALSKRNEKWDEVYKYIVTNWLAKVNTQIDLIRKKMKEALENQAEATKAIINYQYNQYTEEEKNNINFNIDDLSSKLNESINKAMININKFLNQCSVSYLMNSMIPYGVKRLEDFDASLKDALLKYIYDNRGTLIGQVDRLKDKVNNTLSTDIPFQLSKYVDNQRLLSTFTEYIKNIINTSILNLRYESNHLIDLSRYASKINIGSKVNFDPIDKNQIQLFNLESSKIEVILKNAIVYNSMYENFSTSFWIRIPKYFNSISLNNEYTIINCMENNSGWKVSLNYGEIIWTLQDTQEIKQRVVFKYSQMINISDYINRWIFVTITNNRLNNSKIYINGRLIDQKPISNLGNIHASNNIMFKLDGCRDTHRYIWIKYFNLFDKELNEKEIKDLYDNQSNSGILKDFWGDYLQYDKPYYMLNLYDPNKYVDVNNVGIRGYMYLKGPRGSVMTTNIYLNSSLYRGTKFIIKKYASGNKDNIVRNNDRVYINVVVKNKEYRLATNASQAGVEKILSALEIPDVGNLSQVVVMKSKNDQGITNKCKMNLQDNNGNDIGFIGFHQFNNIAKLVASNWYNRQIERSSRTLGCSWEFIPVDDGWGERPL

The substances below were run against endopeptidase (LC) of botulinum neurotoxin serotype A (BoNTA) (Clostridium botulinum, UniProt P0DPI0) (assay: HPLC-based BoNTA light chain protease inhibition assay). Settings: drug concentration 15 μM.
Format: biochemical
With “2-(5-1-(4-Aminobutyl)-2-phenyl-1H-indole-6-carbonyl)-2-(pyrimidin-5-yl)thiophen-3-yl)-N-hydroxyacetamide TFA salt” the “% inhibition of BoNTA at 15 μM” value was 50%. For “2-(5-1-(4-Aminobutyl)-2-phenyl-1H-indole-6-carbonyl)-2-(4-fluorophenyl)-thiophen-3-yl)-N-hydroxyacetamide TFA salt”, the “% inhibition of BoNTA at 15 μM” value was 67%. “2-(5-1-(4-Aminobutyl)-2-phenyl-1H-indole-6-carbonyl)-2-(3-hydroxyphenyl)-thiophen-3-yl)-N-hydroxyacetamide TFA salt” was tested, and the “% inhibition of BoNTA at 15 μM” value was 77%.
